Laboratory results: PubChem BioAssay AID504761 (Drosophila RNAi Screening Center, 2011)
The deposit covers about 22,000 reagents; shown is a random part of those with a known target gene and a result. Over the whole deposit, 116 (0.52%) were called active. 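Calls depend on retest data that are not deposited; infection was ranked per plate without normalising between plates; the unit of the infection score is not given.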 The raw values are shown without normalisation. No sequences are given here. The record does not give: the amount of reagent, the time to read-out.

Purpose: 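Insect host genes that dengue virus relies on to spread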 (primary screen)
System: D.Mel-2 cells from Drosophila
Reagent: long dsRNA against Drosophila genes
Conditions: infection with dengue virus type 2; dose and infection time not stated
Measurement: 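Per well on two replicate plates, imaging gave the percent of cells positive for viral envelope protein, ranked by infection, and a nuclear count of cells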
Scale: infection score: higher = more virus-infected cells; cell count: higher = more cells in the well
Active means: 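Very low infection ranking in both replicate wells (chance probability at most 0.065), then a retest showing infection dropped 1.5-fold or more at p below 0.05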
Meaning of the calls: active = confirmed: knock-down lowers infection; inactive = not picked or not confirmed

{"target": "TotC (GeneID 117462)", "amplicon": "DRSC13449", "infection score, replicate 1": 2.17, "infection score, replicate 2": 2.28, "cell count, replicate 1": 5957, "cell count, replicate 2": 5838, "Outcome": "inactive"}
{"target": "Als2 (GeneID 40410)", "amplicon": "DRSC11806", "infection score, replicate 1": 6.47, "infection score, replicate 2": 11.4, "cell count, replicate 1": 6508, "cell count, replicate 2": 6273, "Outcome": "inactive"}
{"target": "mud (GeneID 44839)", "amplicon": "DRSC19019", "infection score, replicate 1": 1.63, "infection score, replicate 2": 1.28, "cell count, replicate 1": 6558, "cell count, replicate 2": 5712, "Outcome": "inactive"}
{"target": "Cad86C (GeneID 41302)", "amplicon": "DRSC15587", "infection score, replicate 1": 3.87, "infection score, replicate 2": 4.17, "cell count, replicate 1": 6533, "cell count, replicate 2": 6255, "Outcome": "inactive"}
{"target": "Cad86C (GeneID 41302)", "amplicon": "DRSC15611", "infection score, replicate 1": 0.6, "infection score, replicate 2": 3.43, "cell count, replicate 1": 5864, "cell count, replicate 2": 6413, "Outcome": "inactive"}
{"target": "Cad86C (GeneID 41302)", "amplicon": "DRSC27602", "infection score, replicate 1": 6.69, "infection score, replicate 2": 10.6, "cell count, replicate 1": 6662, "cell count, replicate 2": 6571, "Outcome": "inactive"}
{"target": "Cad86C (GeneID 41302)", "amplicon": "DRSC28094", "infection score, replicate 1": 26.3, "infection score, replicate 2": 9.29, "cell count, replicate 1": 4707, "cell count, replicate 2": 6310, "Outcome": "inactive"}
{"target": "Adgf-E (GeneID 36627)", "amplicon": "DRSC05973", "infection score, replicate 1": 22.1, "infection score, replicate 2": 4.19, "cell count, replicate 1": 4852, "cell count, replicate 2": 7161, "Outcome": "inactive"}
{"target": "Adgf-E (GeneID 36627)", "amplicon": "DRSC27287", "infection score, replicate 1": 25.5, "infection score, replicate 2": 24.1, "cell count, replicate 1": 5221, "cell count, replicate 2": 4191, "Outcome": "inactive"}
{"target": "Hand (GeneID 34379)", "amplicon": "DRSC02656", "infection score, replicate 1": 6.7, "infection score, replicate 2": 2.68, "cell count, replicate 1": 5521, "cell count, replicate 2": 6573, "Outcome": "inactive"}
{"target": "CG17760 (GeneID 36385)", "amplicon": "DRSC06694", "infection score, replicate 1": 6.49, "infection score, replicate 2": 3.59, "cell count, replicate 1": 6530, "cell count, replicate 2": 6398, "Outcome": "inactive"}
{"target": "CG17760 (GeneID 36385)", "amplicon": "DRSC25493", "infection score, replicate 1": 2.26, "infection score, replicate 2": 3.23, "cell count, replicate 1": 5966, "cell count, replicate 2": 6043, "Outcome": "inactive"}
{"target": "CG31468 (GeneID 251937)", "amplicon": "DRSC13637", "infection score, replicate 1": 1.01, "infection score, replicate 2": 2.04, "cell count, replicate 1": 5933, "cell count, replicate 2": 6178, "Outcome": "inactive"}
{"target": "CG3224 (GeneID 31600)", "amplicon": "DRSC18295", "infection score, replicate 1": 5.85, "infection score, replicate 2": 6.87, "cell count, replicate 1": 6569, "cell count, replicate 2": 6450, "Outcome": "inactive"}
{"target": "CG3589 (GeneID 37966)", "amplicon": "DRSC04392", "infection score, replicate 1": 7.59, "infection score, replicate 2": 21.1, "cell count, replicate 1": 6008, "cell count, replicate 2": 6205, "Outcome": "inactive"}
{"target": "CG3589 (GeneID 37966)", "amplicon": "DRSC26755", "infection score, replicate 1": 1.95, "infection score, replicate 2": 6.95, "cell count, replicate 1": 6255, "cell count, replicate 2": 6160, "Outcome": "inactive"}
{"target": "CG13197 (GeneID 36253)", "amplicon": "DRSC06322", "infection score, replicate 1": 4.95, "infection score, replicate 2": 6.69, "cell count, replicate 1": 6459, "cell count, replicate 2": 7245, "Outcome": "inactive"}
{"target": "r-cup (GeneID 33075)", "amplicon": "DRSC20475", "infection score, replicate 1": 8.34, "infection score, replicate 2": 3.98, "cell count, replicate 1": 5920, "cell count, replicate 2": 5459, "Outcome": "inactive"}
{"target": "CG8708 (GeneID 35792)", "amplicon": "DRSC07240", "infection score, replicate 1": 37, "infection score, replicate 2": 20.5, "cell count, replicate 1": 4195, "cell count, replicate 2": 5916, "Outcome": "inactive"}
{"target": "CG8708 (GeneID 35792)", "amplicon": "DRSC27874", "infection score, replicate 2": 15.3, "cell count, replicate 1": 473, "cell count, replicate 2": 6721, "Outcome": "inactive"}
{"target": "prd1 (GeneID 41425)", "amplicon": "DRSC15227", "infection score, replicate 1": 2.35, "infection score, replicate 2": 1.62, "cell count, replicate 1": 6470, "cell count, replicate 2": 6533, "Outcome": "inactive"}
{"target": "Ugt302E1 (GeneID 53508)", "amplicon": "DRSC15635", "infection score, replicate 1": 4.33, "infection score, replicate 2": 28.9, "cell count, replicate 1": 6427, "cell count, replicate 2": 5638, "Outcome": "inactive"}
{"target": "Ugt302E1 (GeneID 53508)", "amplicon": "DRSC29326", "infection score, replicate 1": 15.2, "cell count, replicate 1": 3314, "cell count, replicate 2": 316, "Outcome": "inactive"}
{"target": "CG2004 (GeneID 31809)", "amplicon": "DRSC18200", "infection score, replicate 1": 1.83, "infection score, replicate 2": 11.1, "cell count, replicate 1": 6657, "cell count, replicate 2": 5943, "Outcome": "inactive"}
{"target": "mRpL30 (GeneID 31398)", "amplicon": "DRSC18416", "infection score, replicate 2": 12.1, "cell count, replicate 1": 338, "cell count, replicate 2": 1166, "Outcome": "inactive"}
{"target": "mRpL30 (GeneID 31398)", "amplicon": "DRSC26623", "infection score, replicate 1": 7.24, "infection score, replicate 2": 4.49, "cell count, replicate 1": 4726, "cell count, replicate 2": 5304, "Outcome": "inactive"}
{"target": "Cyp6a22 (GeneID 49847)", "amplicon": "DRSC07382", "infection score, replicate 1": 29.8, "infection score, replicate 2": 20.2, "cell count, replicate 1": 5349, "cell count, replicate 2": 5927, "Outcome": "inactive"}
{"target": "Cyp6a22 (GeneID 49847)", "amplicon": "DRSC24011", "infection score, replicate 1": 4.22, "infection score, replicate 2": 0.53, "cell count, replicate 1": 6424, "cell count, replicate 2": 6626, "Outcome": "inactive"}

Sorted by “infection score, replicate 2” (lowest first): some entries from above.
{"target": "CG31468 (GeneID 251937)", "amplicon": "DRSC13637", "infection score, replicate 1": 1.01, "infection score, replicate 2": 2.04, "cell count, replicate 1": 5933, "cell count, replicate 2": 6178, "Outcome": "inactive"}
{"target": "Hand (GeneID 34379)", "amplicon": "DRSC02656", "infection score, replicate 1": 6.7, "infection score, replicate 2": 2.68, "cell count, replicate 1": 5521, "cell count, replicate 2": 6573, "Outcome": "inactive"}
{"target": "CG17760 (GeneID 36385)", "amplicon": "DRSC25493", "infection score, replicate 1": 2.26, "infection score, replicate 2": 3.23, "cell count, replicate 1": 5966, "cell count, replicate 2": 6043, "Outcome": "inactive"}
{"target": "CG17760 (GeneID 36385)", "amplicon": "DRSC06694", "infection score, replicate 1": 6.49, "infection score, replicate 2": 3.59, "cell count, replicate 1": 6530, "cell count, replicate 2": 6398, "Outcome": "inactive"}
